Compound potency records, mixed from different reports. Data source: NIAID ChemDB in PubChem.

All rows: growth or infection tests; species: HIV-1

Conditions beyond the fields shown may differ between rows. Blank or dashed fields: not listed here. ECn is the concentration giving n% inhibition of infection, replication or growth.

smiles | mutations | read by | cells | endpoint | setting | strain or isolate | result
O=c1[nH]cnc2c1ncn2[C@H]1CC[C@@H](CO)O1 |  |  | Primary T lymphocytes | EC50 |  | NL4-3 | 0.481 µM
O=[P@]12OC([C@@H](O)[C@@H](Cc3ccccc3)N1Cc1ccc(O)cc1)[C@@H](Cc1ccccc1)N2Cc1ccc(O)cc1 |  |  | MT-2 | EC90 |  | RF | 1.258 µM
CC(C)(c1ncc(-c2ccc(Cl)cc2)o1)N1CCN(C[C@@H](O)C[C@@H](Cc2nnc(-c3ccccc3)o2)C(=O)N[C@H]2c3ccccc3OC[C@H]2O)[C@H](C(=O)NCC(F)(F)F)C1 | PR-L10I M46I I54V Q58E L63P I64V V77I V82F I84V L90M I93L | p24 | MT-4 | EC95 |  | K-60 Clinical isolate | ≤0.008 µM
Cc1cn([C@H]2C=C[C@@H](CO)O2)c(=O)[nH]c1=O | M41L/M184V/L210W/T215Y | recombinant virus assay | MT-2 | EC50 |  | Clinical isolate | 0.576 µM
Cc1cn([C@@H]2O[C@H](CO[Si](C)(C)C(C)(C)C)[C@@]3(OS(=O)(=O)C=C3N)[C@H]2O[Si](C)(C)C(C)(C)C)c(=O)[nH]c1=O |  | syncytia | CEM | EC50 |  | IIIB | 0.03 µM
Cc1cn([C@H]2C=C[C@@H](CO)O2)c(=O)[nH]c1=O | RT-M41L T215Y | cytopathic effect | MT-4 | EC50 |  | AZT-resistant (RT M41L T215Y) | 0.25 µM
Cc1ccnc2c1NC(=O)c1cccnc1N2C1CC1 | RT-Y181C | syncytia | CEM | EC50 |  | IIIB nevirapine-resistant (RT Y181C) | 5 µM
Nc1ccn(CC#CCO)c(=O)n1 |  | cytopathic effect / trypan blue | ATH8 | EC50 |  | IIIB | >100 µM
CC(C)(C)NC(=O)[C@@H]1CN(Cc2cccnc2)CCN1C[C@@H](O)C[C@@H](Cc1ccccc1)C(=O)N[C@H]1c2ccccc2C[C@H]1O | PR-L10I K20R M36I/V P63L/S L90M | p24 | PBMC | EC90 |  | BR59 (PR L10I K20R M36I/V P63L/S L90M) | 0.015 µM
CN(C)c1cccc2c1nc(-c1c(F)cccc1F)n2Cc1c(F)cccc1F | RT-V108I | cytopathic effect / MTT | MT-4 | EC50 |  |  | 3.2 µM
Fc1cccc(F)c1[C@H]1SCc2nc3ccccc3n21 |  | RT activity | PBMC | EC50 |  | IIIB | 0.55 µM
Cc1nnc(C[C@H](C[C@H](O)CN2CCN(C(C)(C)c3ncc(-c4ccc(Cl)cc4)o3)C[C@H]2C(=O)NCC(F)(F)F)C(=O)N[C@H]2c3ccccc3OC[C@H]2O)o1 | PR-L10I N37S R41K M46I I54V I62V L63P A71V V77I V82A L90M I93L | p24 | MT-4 | EC50 |  | Q-60 Clinical isolate | <0.008 µM
CC(C)(C)NC(=O)[C@@H]1CN(Cc2cccnc2)CCN1C[C@@H](O)C[C@@H](Cc1ccccc1)C(=O)N[C@H]1c2ccccc2C[C@H]1O |  | p24 | PBMC | EC50 |  | BaL | 0.0261 µM
CC(=O)c1ccccc1NC(C(N)=O)c1c(Cl)cccc1Cl | RT-P236L | p24 | MT-4 | EC50 |  | DLV-resistant MF (RT-P236L) | <0.08 µM
Cc1cn([C@H]2C[C@H](F)[C@@H](CO)O2)c(=O)[nH]c1=O |  | ELISA | PBMC | EC50 |  | 4737 | 0.005 µM
CCc1cccc2c1nc(-c1c(F)cccc1F)n2Cc1c(F)cccc1F | RT-K101E | cytopathic effect / MTT | MT-4 | EC50 |  |  | 2.82 µM
COC(=O)N[C@H](C(=O)N[C@@H](Cc1ccccc1)[C@@H](O)CN(Cc1ccc(-c2ccccn2)cc1)NC(=O)[C@@H](NC(=O)OC)C(C)(C)C)C(C)(C)C |  | p24 | PBMC | EC50 |  | ERS104pre | 0.0025 µM
CC(C)c1nc(CN(C)C(=O)N[C@H](C(=O)N[C@@H](Cc2ccccc2)C[C@H](O)[C@H](Cc2ccccc2)NC(=O)OCc2cncs2)C(C)C)cs1 | PR-N88D | p24 | MT-4 | EC50 |  | NL4-3 | <0.01 µM
O=[P@]12O[C@@H]([C@@H](O)[C@@H](Cc3ccccc3)N1CC1CC1)[C@@H](Cc1ccccc1)N2CC1CC1 |  |  | MT-2 | EC90 |  | RF | 110.5 µM
COC(=O)N[C@H](C(=O)N[C@@H](Cc1ccccc1)[C@@H](O)CN(Cc1ccc(-c2ccccn2)cc1)NC(=O)[C@@H](NC(=O)OC)C(C)(C)C)C(C)(C)C |  | p24 | PBMC | EC50 |  | BaL | 0.00438 µM
CC(C)=CCN1Cc2cccc3[nH]c(=S)n(c23)C[C@@H]1C | RT-Y188L | cytopathic effect / MTT | MT-4 | EC50 |  | 1506-RS (RT-Y188L) | >100 µM
Cc1ccnc2c1NC(=O)c1cccnc1N2C1CC1 |  | cytopathic effect / XTT | PBMC | EC50 | clinical isolate | WEJO | 0.06 µM
Nc1ccn([C@H]2CC[C@@H](CO)O2)c(=O)n1 | RT-K103N | p24 | MT-2 | EC50 |  |  | 0.049 µM
Nc1ccn([C@H]2CC[C@@H](CO)O2)c(=O)n1 |  |  | Jurkat cells | EC50 |  | NL4-3 | 0.164 µM
COc1c(O)c(I)c2c(c1OC)-c1c(c(I)c(O)c(OC)c1OC)C[C@H](C)[C@H](C)C2 | RT-L100I | cytopathic effect / MTT | MT-4 | EC50 |  | TIBO-resistant L100I (RT-L100I) | 0.66 µM
Nc1nc(NC2CC2)c2ncn([C@H]3C=C[C@@H](CO)C3)c2n1 | +Vpx |  | Primary T lymphocytes | EC50 |  | NL4-3 | 0.009 µM
Cc1c(-c2cnccn2)ssc1=S |  | p24 | ACH-2(PMA+) + ACH2 | EC50 |  |  | >60 µM
Cc1cn([C@H]2C[C@H](N=[N+]=[N-])[C@@H](CO)O2)c(=O)[nH]c1=O |  | p24 | PBMC | EC50 |  | BaL | 0.0225 µM
O=c1[nH]cnc2c1ncn2[C@H]1CC[C@@H](CO)O1 |  | cytopathic effect / trypan blue | ATH8 | EC50 |  | IIIB | <10 µM
CCc1cc(NCc2nc3c(Cl)ccc(Cl)c3o2)c(=O)[nH]c1C |  | antigen | MT-4 | EC90 |  | HXB2 | 0.085 µM
CCCc1nnc(C[C@H](C[C@H](O)CN2CCN(Cc3ccc(-c4ccc(Cl)cc4)o3)C[C@H]2C(=O)NCC(F)(F)F)C(=O)N[C@H]2c3ccccc3OC[C@H]2O)o1 | PR-L10I M46I I54V Q58E L63P I64V V77I V82F I84V L90M I93L | p24 | MT-4 | EC95 |  | K-60 Clinical isolate | ≤0.008 µM
CC(C)c1nc(CN(C)C(=O)N[C@H](C(=O)N[C@@H](Cc2ccccc2)C[C@H](O)[C@H](Cc2ccccc2)NC(=O)OCc2cncs2)C(C)C)cs1 |  | p24 | PBMC | EC50 |  | BaL | 0.191 µM
Cc1cn([C@H]2C[C@H](N=[N+]=[N-])[C@@H](CO)O2)c(=O)[nH]c1=O |  | cytopathic effect / XTT | PBMC | EC50 |  | WEJO (syncytium-inducing) | 0.02 µM
Cc1ccnc2c1NC(=O)c1cccnc1N2C1CC1 | RT-K103N Y181C | cytopathic effect / MTT | MT-4 | EC50 |  | A17 | >100 µM
CC(C)(c1ncc(-c2ccc(F)cc2)o1)N1CCN(C[C@@H](O)C[C@@H](Cc2nnc(-c3ccccc3)o2)C(=O)N[C@H]2c3ccccc3OC[C@H]2O)[C@H](C(=O)NCC(F)(F)F)C1 |  | p24 | MT-4 | EC50 |  | NL4-3 WT | <0.008 µM
Cc1cn([C@H]2C[C@H](N=[N+]=[N-])[C@@H](CO)O2)c(=O)[nH]c1=O |  | MTT | MT-4 | EC50 |  | IIIB | 0.007 µM
CC(C)[C@H](NC(=O)c1ccc2ccccc2n1)C(=O)N[C@@H](Cc1ccccc1)[C@H](O)CN1CC[C@@H](OCc2ccncc2)C[C@H]1C(=O)NC(C)(C)C |  | p24 | Macrophage + Monocytes/macrophages | EC50 |  | ADA | 0.004 µM
Fc1cccc(F)c1C1SCc2nc3ccccc3n21 |  | cytopathic effect / XTT | CEM + CEM-SS | EC50 |  | RF | 1.1 µM
Cc1cn([C@@H]2O[C@H](CO[Si](C)(C)C(C)(C)C)C3(OS(=O)(=O)C=C3N)[C@H]2O[Si](C)(C)C(C)(C)C)c(=O)n(C)c1=O | RT-Y181C | syncytia | CEM | EC50 |  | IIIB nevirapine-resistant (RT Y181C) | >50 µM
CC(=O)N(C)c1cccc2c1nc(-c1c(F)cccc1F)n2Cc1c(F)cccc1F | RT-L100I | cytopathic effect / MTT | MT-4 | EC50 |  |  | 0.16 µM
CCOCn1c(Cc2cc(C)cc(C)c2)c(CC)c(=O)[nH]c1=O | RT-L100I E138K | syncytia | CEM | EC50 |  | IIIB TIBO R82913 STR-B02 (RT L100I E138K) | 0.1 µM
Nc1ncnc2c1ncn2CC#CCO |  | cytopathic effect / trypan blue | ATH8 | EC50 |  | IIIB | >100 µM
CC(=O)Nc1cccc2c1nc(-c1c(F)cccc1F)n2Cc1c(F)cccc1F | RT-L100I | cytopathic effect / MTT | MT-4 | EC50 |  |  | 31.6 µM
Cc1cc(C)c(Oc2ccc(N)c(NC3CCN(Cc4ccncc4)CC3)n2)c(C)c1 |  | MTT | MT-4 | EC50 |  | IIIB | 0.084 µg/mL
Cc1cn([C@H]2C=C[C@@H](CO)O2)c(=O)[nH]c1=O |  |  | Jurkat cells | EC50 |  | NL4-3 | 5 µM
COc1ccc(CN2CCC(Nc3nc(Nc4c(C)cc(C)cc4C)c4[nH]cnc4n3)CC2)cc1 |  | MTT | MT-4 | EC50 |  | IIIB | >15.1 µM
O=[P@]12OC([C@@H](O)[C@@H](Cc3ccccc3)N1Cc1ccc(CO)cc1)[C@@H](Cc1ccccc1)N2Cc1ccc(CO)cc1 |  |  | MT-2 | EC90 |  | RF | 0.154 µM
Cc1cc(C)c(Oc2ccc([N+](=O)[O-])c(NC3CCN(Cc4ccc(C(N)=O)cc4)CC3)n2)c(C)c1 |  | MTT | MT-4 | EC50 |  | IIIB | 0.012 µg/mL
Nc1ccn(C/C=C/CO)c(=O)n1 |  | cytopathic effect / trypan blue | ATH8 | EC50 |  | IIIB | >100 µM
COc1cncc(-c2cnc(C(C)(C)N3CCN(C[C@@H](O)C[C@@H](Cc4nnc(C)o4)C(=O)N[C@H]4c5ccccc5OC[C@H]4O)[C@H](C(=O)NCC(F)(F)F)C3)o2)c1 | PR-L10I M46I I54V Q58E L63P I64V V77I V82F I84V L90M I93L | p24 | MT-4 | EC95 |  | K-60 Clinical isolate | >1 µM
CC(C)CN(C[C@@H](O)[C@H](Cc1ccccc1)NC(=O)O[C@H]1CCOC1)S(=O)(=O)c1ccc(N)cc1 |  | MTT | MT-2 | EC50 |  | LAI | 0.037 µM
CCCc1nnc(C[C@H](C[C@H](O)CN2CCN(C(C)(C)c3ncc(-c4ccc(Cl)cc4)o3)C[C@H]2C(=O)NCC(F)(F)F)C(=O)N[C@H]2c3ccccc3OC[C@H]2O)o1 | PR-L10I M36I N37D M46I R57K L63P A71V G73S I84V L90M I93L | p24 | MT-4 | EC50 |  | V-18 Clinical isolate | <0.063 µM
C=S(=C)(N)c1ccc(CN2CCC(Nc3nc(Nc4c(C)cc(C)cc4C)c4[nH]cnc4n3)CC2)cc1 |  | MTT | MT-4 | EC50 |  | RES056 | >23.89 µM
Nc1nc(=O)n([C@@H]2CS[C@H](CO)O2)cc1F | M41L/D67N/K70R/A98G/K101E/M184V/G190A/L210W/T215Y/K219E | recombinant virus assay | MT-2 | EC50 |  | Clinical isolate | >13.3 µM
Cc1ccnc2c1NC(=O)c1cccnc1N2C1CC1 | RT-delta67 T69G | p24 | MT-2 | EC50 |  |  | 0.016 µM
Cc1cc(C#N)cc(C)c1Oc1ccc(N)c(NC2CCN(Cc3ccc(S(C)(=O)=O)cc3)CC2)n1 |  | MTT | MT-4 | EC50 |  | IIIB | 0.047 µg/mL
Cc1cn([C@@H]2O[C@H](CO[Si](C)(C)C(C)(C)C)C3(OS(=O)(=O)C=C3N)[C@H]2O[Si](C)(C)C(C)(C)C)c(=O)n(C)c1=O | RT-Y188C | cytopathic effect / XTT | CEM | EC50 |  | IIIB | 2.4 µM
Cc1cc(C)c(Nc2ccc([N+](=O)[O-])c(NC3CCN(Cc4ccc(S(C)(=O)=O)cc4)CC3)n2)c(C)c1 | Resistant strain (K103N + Y181C) | MTT | MT-4 | EC50 |  | IIIB | >21 µM
Cc1cc(C)c(Nc2nc(NC3CCN(Cc4ccccc4)CC3)nc3nc[nH]c23)c(C)c1 |  | MTT | MT-4 | EC50 |  | IIIB | 8.15 µM
C1CNCCNCCCN(CCCN2CCCNCCNCCCNCC2)CCNC1 |  | cytopathic effect / MTS | MT-4 | EC50 |  | NL4-3 | 0.49 µM
Nc1nc2c(ncn2[C@H]2CC[C@@H](CO)O2)c(=O)[nH]1 | RT-E138K | syncytia | CEM | EC50 |  | IIIB TSAO-T(RT-E138K) | 3.5 µM
CC(C)(c1ncc(-c2ccc(F)cc2)o1)N1CCN(C[C@@H](O)C[C@@H](Cc2nnco2)C(=O)N[C@H]2c3ccccc3OC[C@H]2O)[C@H](C(=O)NCC(F)(F)F)C1 | PR-L10I M46I I54V Q58E L63P I64V V77I V82F I84V L90M I93L | p24 | MT-4 | EC95 |  | K-60 Clinical isolate | 0.125 µM

4 of the rows above, restated:

Cc1cn([C@H]2C[C@H](N=[N+]=[N-])[C@@H](CO)O2)c(=O)[nH]c1=O ; read by: MTT ; cells: MT-4 ; endpoint: EC50 ; strain or isolate: IIIB ; result: 0.007 µM
Cc1cn([C@@H]2O[C@H](CO[Si](C)(C)C(C)(C)C)C3(OS(=O)(=O)C=C3N)[C@H]2O[Si](C)(C)C(C)(C)C)c(=O)n(C)c1=O ; mutations: RT-Y181C ; read by: syncytia ; cells: CEM ; endpoint: EC50 ; strain or isolate: IIIB nevirapine-resistant (RT Y181C) ; result: >50 µM
COC(=O)N[C@H](C(=O)N[C@@H](Cc1ccccc1)[C@@H](O)CN(Cc1ccc(-c2ccccn2)cc1)NC(=O)[C@@H](NC(=O)OC)C(C)(C)C)C(C)(C)C ; read by: p24 ; cells: PBMC ; endpoint: EC50 ; strain or isolate: ERS104pre ; result: 0.0025 µM
Nc1nc(NC2CC2)c2ncn([C@H]3C=C[C@@H](CO)C3)c2n1 ; mutations: +Vpx ; cells: Primary T lymphocytes ; endpoint: EC50 ; strain or isolate: NL4-3 ; result: 0.009 µM